Measurements reported in PubChem BioAssay AID1259414 (Drosophila RNAi Screening Center, 2018).

Aim: 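Host factors increasing or decreasing Wolbachia levels in cultured fly cells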 (primary screen)
Cells: Drosophila JW18 cells infected with Wolbachia
Reagents: long dsRNA against Drosophila genes, 0.25 µg dsRNA per well of a 384-well plate
Time to read-out: 5 days
Conditions: cells persistently infected with Wolbachia before knock-down; no added drug
Measurement: 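Automated imaging of bacterial rRNA staining divided by host cell count, reported as plate-normalised robust z-score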
Direction: Wolbachia per cell robust z: higher = more Wolbachia per host cell than the plate typical
Rule for the call: 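Active if absolute robust z reaches 1.5 in two or more of three replicates, leaving out multi- or no-target dsRNAs, genes unexpressed in JW18 and A1 wells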
The deposit covers about 24,000 reagents; below is an unselected part of those that have a named target and a result. Of all reagents, about 1,210 (5%) were called active. 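Inactive calls also include excluded dsRNAs with several or no targets, genes unexpressed in JW18, and well A1, regardless of score.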 Entries without a mark were called inactive.

{"Gene": "CG9928", "PubChem SID": "SID104183066", "Wolbachia per cell robust z, rep 1": -4.43, "Wolbachia per cell robust z, rep 2": -0.274, "Wolbachia per cell robust z, rep 3": -0.123}
{"Gene": "nSMase", "PubChem SID": "SID104188029", "Wolbachia per cell robust z, rep 1": 0.677, "Wolbachia per cell robust z, rep 2": 0.354, "Wolbachia per cell robust z, rep 3": 0.756}
{"Gene": "nSMase", "PubChem SID": "SID104218918", "Wolbachia per cell robust z, rep 1": -1.96, "Wolbachia per cell robust z, rep 2": 0.249, "Wolbachia per cell robust z, rep 3": 0.576}
{"Gene": "CG14823", "PubChem SID": "SID104189986", "Wolbachia per cell robust z, rep 1": -0.288, "Wolbachia per cell robust z, rep 2": 0.471, "Wolbachia per cell robust z, rep 3": 0.6}
{"Gene": "Mtr3", "PubChem SID": "SID104190745", "Wolbachia per cell robust z, rep 1": 0.267, "Wolbachia per cell robust z, rep 2": -0.384, "Wolbachia per cell robust z, rep 3": 0.0543}
{"Gene": "Mtr3", "PubChem SID": "SID104205500", "Wolbachia per cell robust z, rep 1": 0.428, "Wolbachia per cell robust z, rep 2": 2.66, "Wolbachia per cell robust z, rep 3": 1.32}
{"Gene": "Taf11", "PubChem SID": "SID104183240", "Wolbachia per cell robust z, rep 1": 0.355, "Wolbachia per cell robust z, rep 2": 0.823, "Wolbachia per cell robust z, rep 3": 0.448}
{"Gene": "Art7", "PubChem SID": "SID104184380", "Wolbachia per cell robust z, rep 1": -0.0383, "Wolbachia per cell robust z, rep 2": 1.47, "Wolbachia per cell robust z, rep 3": 0.641}
{"Gene": "Art7", "PubChem SID": "SID104204689", "Wolbachia per cell robust z, rep 1": 0.97, "Wolbachia per cell robust z, rep 2": 0.675, "Wolbachia per cell robust z, rep 3": 0.203}
{"Gene": "CG4942", "PubChem SID": "SID104190254", "Wolbachia per cell robust z, rep 1": 0.812, "Wolbachia per cell robust z, rep 2": 0.711, "Wolbachia per cell robust z, rep 3": -1.31}
{"Gene": "mid", "PubChem SID": "SID104182769", "Wolbachia per cell robust z, rep 1": -5.14, "Wolbachia per cell robust z, rep 2": -4.05, "Wolbachia per cell robust z, rep 3": -4.02}
{"Gene": "mid", "PubChem SID": "SID104201222", "Wolbachia per cell robust z, rep 1": 0.764, "Wolbachia per cell robust z, rep 2": 0.699, "Wolbachia per cell robust z, rep 3": -0.518}
{"Gene": "mid", "PubChem SID": "SID104204102", "Wolbachia per cell robust z, rep 1": -1.18, "Wolbachia per cell robust z, rep 2": -0.171, "Wolbachia per cell robust z, rep 3": -1.74}

Reformatted: 2 of the entries above.
Gene | PubChem SID | Wolbachia per cell robust z, rep 1 | Wolbachia per cell robust z, rep 2 | Wolbachia per cell robust z, rep 3
Art7 | SID104184380 | -0.0383 | 1.47 | 0.641
Art7 | SID104204689 | 0.97 | 0.675 | 0.203
